Here are results for two sequences from PMC5709419, “Fine control of metal concentrations is necessary for cells to discern zinc from cobalt”.

pKd: −log10 of the molar value. For at least one entry, the source does not settle the construct or the ends of the probe. For part of these data: At least one verdict rests on a figure or table, not on a statement of the authors. Where a protein sequence is shown, tags need not be part of it.

Series [1] has as its target T1, Zur (Salmonella enterica sv. Typhimurium SL1344) (UniProt A0A0H3NVF0).
T1 sequence (looked up, limits assumed): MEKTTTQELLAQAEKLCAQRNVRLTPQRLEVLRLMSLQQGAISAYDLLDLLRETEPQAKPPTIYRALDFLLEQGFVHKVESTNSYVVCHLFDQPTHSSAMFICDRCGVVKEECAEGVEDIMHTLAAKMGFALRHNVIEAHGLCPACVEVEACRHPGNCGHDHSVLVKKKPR
As to the kind of experiment: fluorescence anisotropy. The following applies: apo (structural Zn only), 5 mM EDTA, printed as >=; 10 nM probe, 60 mM NaCl, 240 mM KCl, 10 mM HEPES pH 7.0, anaerobic; temperature not stated; recombinant protein; label: 5' HEX on strand 1.

For series [2], the target named is T2, RcnR (Salmonella enterica sv. Typhimurium SL1344) (UniProt Q7CPV3).
T2 sequence (looked up, limits assumed): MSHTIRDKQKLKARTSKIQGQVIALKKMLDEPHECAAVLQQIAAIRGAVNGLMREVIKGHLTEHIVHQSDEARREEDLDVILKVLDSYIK
As to the kind of experiment: fluorescence anisotropy. The note with it: 10 nM probe, 60 mM NaCl, 240 mM KCl, 10 mM HEPES pH 7.0, anaerobic, temperature not stated, recombinant protein, label: 5' HEX on strand 1.

With “TAGAATGTTATAATATCACATTTCACACATTCA (double strand) [znuAPro]”, in series [1], the pKd is under 4.57.

In the case of “TACTCCCCCCCAGTATAGAATACTACCCCCCAGTA (double strand) [rcnAPro]”, the pKd in series [2] (Zn(II)-RcnR, 1.2 eq ZnCl2, printed as >=, >=90-fold weaker than apo) is under 4.89. The binding result in series [2] (apo, 5 mM EDTA, titrated here, Kd only from earlier paper) is “binds”.
